## Replication capacity of HIV-1 mutants, RT

Data from the supplement of Al-Mawsawi et al. 2014, doi:10.1186/s12977-014-0124-6.

Protein: RT of HIV-1 NL4-3, numbered from its first residue.
Effects on overlapping genes or RNA elements are not listed.

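Seven fragments of pNL4-3 were mutated by error-prone PCR, and each virus pool was passaged in CEM T cells. Sequencing gave the RC index: frequency after two rounds over frequency in the input plasmid.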

RC index: lower means poorer replication; rough cut-offs are 0.1 (lethal) and 0.2 (tolerated). Substitutions are written as wild-type residue, site number, new residue. Input reads are the counts in the plasmid library. An index over 1, which the authors read as above wild type, was rare (1.9% of all changes in the genome). Clones carried about five changes per kilobase, which can drag down the index of neutral changes. Nucleotide positions follow pNL4-3.

Q475L (base A3973T, input reads 274) gave 0.0277.
Q85H (base A2804T, input reads 409) gave 0.0250.
T403S (base A3756T, input reads 373) gave 0.0498.
K353R (base A3607G, input reads 246) gave 0.0551.
I521M (base A4112G, input reads 230) gave 0.0570.
W414C (base G3791T, input reads 254) gave 0.0216.
G231S (base G3240A, input reads 207) gave 0.157.
E224G (base A3220G, input reads 121) gave 0.140.
V60I (base G2727A, input reads 538) gave 0.0665.
E305G (base A3463G, input reads 61) gave 0.0520.
N137S (base A2959G, input reads 241) gave 0.0173.
K82R (base A2794G, input reads 169) gave 0.0202.
K431R (base A3841G, input reads 294) gave 0.0372.
T27R (base C2629G, input reads 231) gave 0.0369.
I521L (base A4110T, input reads 235) gave 0.0558.
P150T (base C2997A, input reads 101) gave 0.120.
Q464R (base A3940G, input reads 298) gave 0.102.
L422S (base T3814C, input reads 140) gave 0.0521.
K43E (base A2676G, input reads 533) gave 0.0280.
K275E (base A3372G, input reads 254) gave 0.0709.
L168F (base A3053T, input reads 379) gave 0.0273.
L533P (base T4147C, input reads 384) gave 0.0598.
K126E (base A2925G, input reads 331) gave 0.0252.
K101R (base A2851G, input reads 119) gave 0.0525.
T69A (base A2754G, input reads 204) gave 0.0417.
M164I (base G3041T, input reads 104) gave 0.415.
L92I (base T2823A, input reads 211) gave 0.0323.
L368V (base T3651G, input reads 34) gave 0.0781.
D123Y (base G2916T, input reads 210) gave 0.0496.
Q480R (base A3988G, input reads 332) gave 0.132.
T165P (base A3042C, input reads 121) gave 0.0570.
F130L (base T2937C, input reads 157) gave 0.0265.
K275T (base A3373C, input reads 126) gave 0.0476.
S322T (base T3513A, input reads 240) gave 0.0323.
T39I (base C2665T, input reads 575) gave 0.137.
I526L (base A4125T, input reads 369) gave 0.0444.
E300K (base G3447A, input reads 224) gave 0.0850.
L205P (base T3163C, input reads 352) gave 0.0854.
T473S (base A3966T, input reads 281) gave 0.0609.
T351A (base A3600G, input reads 165) gave 0.0587.
I135M (base A2954G, input reads 142) gave 0.0220.
K223R (base A3217G, input reads 438) gave 0.0343.
A98S (base G2841T, input reads 47) gave 0.0886.
K104N (base A2861T, input reads 318) gave 0.00655.
E203V (base A3157T, input reads 241) gave 0.0702.
I375K (base T3673A, input reads 80) gave 0.166.
V179D (base T3085A, input reads 425) gave 0.0446.
K201R (base A3151G, input reads 225) gave 0.0752.
D324G (base A3520G, input reads 87) gave 0.423.
N54K (base T2711A, input reads 566) gave 0.0341.
M230V (base A3237G, input reads 197) gave 0.191.
L109P (base T2875C, input reads 265) gave 0.0353.
I195K (base T3133A, input reads 532) gave 0.0424.
M184I (base G3101T, input reads 255) gave 0.135.
D67E (base C2750G, input reads 86) gave 0.119.
G51V (base G2701T, input reads 279) gave 0.117.
I50T (base T2698C, input reads 271) gave 0.0925.
K49R (base A2695G, input reads 419) gave 0.0736.
D460E (base C3929G, input reads 83) gave 0.0660.
P345T (base C3582A, input reads 111) gave 0.140.
T200A (base A3147G, input reads 153) gave 0.0860.
S519C (base A4104T, input reads 328) gave 0.0250.
I37V (base A2658G, input reads 283) gave 0.0226.
F346L (base T3585C, input reads 291) gave 0.0932.

A selection of 4 entries from above:

With I37V (base A2658G, input reads 283) the assay gave 0.0226.
With K104N (base A2861T, input reads 318) the assay gave 0.00655.
With Q475L (base A3973T, input reads 274) the assay gave 0.0277.
With F130L (base T2937C, input reads 157) the assay gave 0.0265.